Compound potency records, mixed from different reports. Data source: NIAID ChemDB in PubChem.

Common to all: tests in culture; agent: Aspergillus fumigatus

Zones are inhibition diameters on agar. MIC50, MIC90 and the like: level of inhibition, or share of isolates inhibited. Percent inhibition refers to the dose given; in toxicity tests it is the harm to the cells. An empty or dashed field is not shown. Neighbouring rows are from separate reports.

SMILES | strain | mutations | read by | read-out | tested at | result
C[C@@H](c1nc(-c2ccc(C#N)cc2)cs1)[C@](O)(Cn1cnnc1)c1ccc(F)cc1F | 50 strains | - | - | Mean MIC | - | 1.71 µg/mL
COC(=O)C1C(c2cc3cc(C)ccc3nc2Cl)C2=C(CCCC2=O)N(c2cccnc2)C1N | MTCC 3008 | - | broth dilution | MIC99 | - | >1000 µg/mL
CCN1CCC(O)(/C=C/c2ccc(Cl)c(Cl)c2)C(C(=O)/C=C/c2ccc(Cl)c(Cl)c2)C1 | 20 strains | - | - | Mean MIC | - | 24.37 µM
Cc1ccc(-c2n[nH]c(COc3ncnc4ccccc34)n2)cc1 | MTCC 343 | - | - | MIC100 | - | 25 µg/mL
C[C@@H](c1ncncc1F)[C@](O)(Cn1cncn1)c1ccc(F)cc1F | 35 isolates | - | - | Geometric mean MIC | - | 0.41 µg/mL
CCC(C)CC(C)CCCCCCCCC(=O)N[C@H]1C[C@@H](O)[C@H](NCCN)NC(=O)[C@@H]2[C@@H](O)CCN2C(=O)[C@H]([C@H](O)CCN)NC(=O)[C@H]([C@H](O)[C@@H](O)c2ccc(O)cc2)NC(=O)[C@@H]2C[C@@H](O)CN2C(=O)[C@H]([C@@H](C)O)NC1=O | 28 isolates | - | - | Geometric mean MIC | - | 0.08 µg/mL
C[C@H]1[C@H](O)[C@@H](C)/C=C/C=C/C=C/C=C/C=C/C=C/C=C/[C@H](O[C@@H]2O[C@H](C)[C@@H](O)[C@H](N)[C@@H]2O)C[C@@H]2O[C@](O)(C[C@@H](O)C[C@@H](O)CC[C@H](O)[C@@H](O)C[C@@H](O)CC(=O)O[C@H]1C)C[C@H](O)[C@H]2C(=O)O | 62 isolates | - | - | MIC90 | - | 0.5 µg/mL
CCC(C)CCCCCCCCCCC(=O)N[C@H]1C[C@@H](O)[C@@H](Sc2ccccc2)NC(=O)C2[C@@H](O)[C@@H](C)CN2C(=O)C(CO)NC(=O)C([C@H](O)C(O)c2ccc(O)cc2)NC(=O)NC(=O)[C@@H]2C[C@@H](O)CN2C(=O)[C@H]([C@@H](C)O)NC1=O | AF-1 | - | agar | zone | 2 mg/mL | 17 mm
C[C@H]1[C@H](O)[C@@H](C)/C=C/C=C/C=C/C=C/C=C/C=C/C=C/[C@H](O[C@@H]2O[C@H](C)[C@@H](O)[C@H](N)[C@@H]2O)C[C@@H]2O[C@](O)(C[C@@H](O)C[C@@H](O)CC[C@H](O)[C@@H](O)C[C@@H](O)CC(=O)O[C@H]1C)C[C@H](O)[C@H]2C(=O)O | 35 isolates | - | - | Geometric mean MIC | - | 0.87 µg/mL
COC(=O)C1C(c2cc3cc(Cl)ccc3nc2Cl)C2=C(CCCC2=O)N(c2cccnc2)C1N | MTCC 3008 | - | broth dilution | MIC99 | - | 500 µg/mL
CCCCCCCC(=O)NC(CCCN)C(N)=O | ATCC 42203 | - | broth dilution | MIC | - | >100 µg/mL
C[C@@H](c1ncncc1F)[C@](O)(Cn1cncn1)c1ccc(F)cc1F | 94 isolates | - | - | Geometric mean MIC | - | 0.52 µg/mL
CCCCCCCCCCCCCCCC(=O)NC(CCCN)C(=O)NC(CCCN)C(N)=O | ATCC 42203 | - | broth dilution | MIC | - | 6.25 µg/mL
Cc1ccc(-c2n[nH]c(COc3nc(C)nc4ccccc34)n2)cc1 | MTCC 343 | - | - | MIC100 | - | 50 µg/mL
CCC(C)n1ncn(-c2ccc(N3CCN(c4ccc(OC[C@H]5CO[C@](Cn6cncn6)(c6ccc(Cl)cc6Cl)O5)cc4)CC3)cc2)c1=O | AF293 | sakA | broth dilution | inhibition | 32 µg/mL | 99.95%
C[C@H]1[C@H](O)[C@@H](C)/C=C/C=C/C=C/C=C/C=C/C=C/C=C/[C@H](O[C@@H]2O[C@H](C)[C@@H](O)[C@H](N)[C@@H]2O)C[C@@H]2O[C@](O)(C[C@@H](O)C[C@@H](O)CC[C@H](O)[C@@H](O)C[C@@H](O)CC(=O)O[C@H]1C)C[C@H](O)[C@H]2C(=O)O | 35 isolates | - | - | MFC50 | - | 8 µg/mL
C[C@H]1[C@H](O)[C@@H](C)/C=C/C=C/C=C/C=C/C=C/C=C/C=C/[C@H](O[C@@H]2O[C@H](C)[C@@H](O)[C@H](N)[C@@H]2O)C[C@@H]2O[C@](O)(C[C@@H](O)C[C@@H](O)CC[C@H](O)[C@@H](O)C[C@@H](O)CC(=O)O[C@H]1C)C[C@H](O)[C@H]2C(=O)O | 150 clinical isolates | - | - | MIC90 | - | 1 µg/mL
FC(F)(F)c1nc(OCc2nc(-c3ccc(Br)cc3)n[nH]2)c2ccccc2n1 | MTCC 343 | - | - | MIC100 | - | 12.5 µg/mL
CCCCCCCCCCCC(=O)NC(CCCN)C(=O)NC(CCCN)C(=O)NC(CCCN)C(=O)NC(CCCN)C(=O)NC(CCCN)C(N)=O | ATCC 42203 | - | broth dilution | MIC | - | 12.5 µg/mL
CCC(C)CCCCCCCCCCC(=O)N[C@H]1C[C@@H](O)[C@@H](NCCN2CCOCC2)NC(=O)C2[C@@H](O)[C@@H](C)CN2C(=O)C(CO)NC(=O)C([C@H](O)C(NCCN2CCOCC2)c2ccc(O)cc2)NC(=O)NC(=O)[C@@H]2C[C@@H](O)CN2C(=O)[C@H]([C@@H](C)O)NC1=O | AF-1 | - | agar | zone | 5 mg/mL | 16 mm
C[C@H]1[C@H](O)[C@@H](C)/C=C/C=C/C=C/C=C/C=C/C=C/C=C/[C@H](O[C@@H]2O[C@H](C)[C@@H](O)[C@H](N)[C@@H]2O)C[C@@H]2O[C@](O)(C[C@@H](O)C[C@@H](O)CC[C@H](O)[C@@H](O)C[C@@H](O)CC(=O)O[C@H]1C)C[C@H](O)[C@H]2C(=O)O | - | - | - | MLC90 | - | 4 µg/mL
CCCCCCCCCCCC(=O)NC(CCCN)C(N)=O | ATCC 42203 | - | broth dilution | MIC | - | >100 µg/mL
C[C@H]1[C@H](O)[C@@H](C)/C=C/C=C/C=C/C=C/C=C/C=C/C=C/[C@H](O[C@@H]2O[C@H](C)[C@@H](O)[C@H](N)[C@@H]2O)C[C@@H]2O[C@](O)(C[C@@H](O)C[C@@H](O)CC[C@H](O)[C@@H](O)C[C@@H](O)CC(=O)O[C@H]1C)C[C@H](O)[C@H]2C(=O)O | Clinical isolate | - | visual reading | MFC | - | 2 µg/mL
COC(=O)C1C(c2cc3cc(OC)ccc3nc2Cl)C2=C(CCCC2=O)N(c2cccnc2)C1N | MTCC 3008 | - | broth dilution | MIC99 | - | >1000 µg/mL
C[C@H]1[C@H](O)[C@@H](C)/C=C/C=C/C=C/C=C/C=C/C=C/C=C/[C@H](O[C@@H]2O[C@H](C)[C@@H](O)[C@H](N)[C@@H]2O)C[C@@H]2O[C@](O)(C[C@@H](O)C[C@@H](O)CC[C@H](O)[C@@H](O)C[C@@H](O)CC(=O)O[C@H]1C)C[C@H](O)[C@H]2C(=O)O | ATCC 46645 | - | broth dilution | MFC | - | 4 µg/mL
Cc1ccc(C(C)C)c(O)c1 | F07 | - | - | MLC | - | 0.64 µg/mL
CC1=CC[C@@H]2[C@H](C1)C2(C)C | F05 | - | - | MLC | - | 0.64 µg/mL
CCC(C)CC(C)CCCCCCCCC(=O)N[C@H]1C[C@@H](O)[C@H](NCCN)NC(=O)[C@@H]2[C@@H](O)CCN2C(=O)[C@H]([C@H](O)CCN)NC(=O)[C@H]([C@H](O)[C@@H](O)c2ccc(O)cc2)NC(=O)[C@@H]2C[C@@H](O)CN2C(=O)[C@H]([C@@H](C)O)NC1=O | 62 isolates | - | - | Geometric mean MIC | - | 0.437 µg/mL
CCC(C)CC(C)CCCCCCCCC(=O)N[C@H]1C[C@@H](O)[C@H](NCCN)NC(=O)[C@@H]2[C@@H](O)CCN2C(=O)[C@H]([C@H](O)CCN)NC(=O)[C@H]([C@H](O)[C@@H](O)c2ccc(O)cc2)NC(=O)[C@@H]2C[C@@H](O)CN2C(=O)[C@H]([C@@H](C)O)NC1=O | 26 isolates | - | - | Geometric mean MEC | - | 0.28 µg/mL
c1csc(-c2n[nH]c(COc3ncnc4ccccc34)n2)c1 | MTCC 343 | - | - | MIC100 | - | 12.5 µg/mL
CCCCCCCCCCCCCCCC(=O)NC(CCCN)C(=O)NC(CCCN)C(=O)NC(CCCN)C(=O)NC(CCCN)C(=O)NC(CCCN)C(N)=O | ATCC 42203 | - | broth dilution | MIC | - | 1.5 µg/mL
CCOC(=O)C1C(c2cc3cc(OC)ccc3nc2Cl)C2=C(CCCC2=O)N(c2cccnc2)C1N | MTCC 3008 | - | broth dilution | MIC99 | - | 500 µg/mL
CCN1CCC(O)(/C=C/c2ccc(Cl)cc2)C(C(=O)/C=C/c2ccc(Cl)cc2)C1 | 20 strains | - | - | Mean MIC | - | 11.87 µM
Cc1nc(OCc2nc(-c3ccc(Br)cc3)n[nH]2)c2ccccc2n1 | MTCC 343 | - | - | MIC100 | - | 25 µg/mL
CCCCCCCCCCCC(=O)NC(CCCN)C(=O)NC(CCCN)C(N)=O | ATCC 42203 | - | broth dilution | MIC | - | 50 µg/mL

For reference, 4 entries again:

SMILES | strain | mutations | read by | read-out | tested at | result
C[C@@H](c1ncncc1F)[C@](O)(Cn1cncn1)c1ccc(F)cc1F | 94 isolates | - | - | Geometric mean MIC | - | 0.52 µg/mL
COC(=O)C1C(c2cc3cc(C)ccc3nc2Cl)C2=C(CCCC2=O)N(c2cccnc2)C1N | MTCC 3008 | - | broth dilution | MIC99 | - | >1000 µg/mL
CCC(C)CC(C)CCCCCCCCC(=O)N[C@H]1C[C@@H](O)[C@H](NCCN)NC(=O)[C@@H]2[C@@H](O)CCN2C(=O)[C@H]([C@H](O)CCN)NC(=O)[C@H]([C@H](O)[C@@H](O)c2ccc(O)cc2)NC(=O)[C@@H]2C[C@@H](O)CN2C(=O)[C@H]([C@@H](C)O)NC1=O | 62 isolates | - | - | Geometric mean MIC | - | 0.437 µg/mL
Cc1ccc(-c2n[nH]c(COc3ncnc4ccccc34)n2)cc1 | MTCC 343 | - | - | MIC100 | - | 25 µg/mL